HIV-1 NL4-3 point mutations in RT: replication capacity

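Seven fragments of pNL4-3 were mutated by error-prone PCR, and each virus pool was passaged in CEM T cells. The RC index is the frequency of a change after passage round 2 divided by its frequency in the plasmid library.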

Protein: RT of HIV-1 NL4-3, numbered from its first residue.
Effects on overlapping genes or RNA elements are not listed.

A higher RC index is a better tolerated change; approximate classes are lethal up to 0.1, attenuated to 0.2, tolerated above.
Substitutions are written as wild-type residue, site number, new residue.
Since each clone held several changes (about five per kb), neutral changes can read low.
Nucleotide positions follow pNL4-3.
An index over 1, which the authors read as above wild type, was rare (1.9% of all changes in the genome).

E370D (base G3659T) read 0.0590. L469Q (base T3955A) gave 0.0253. For L12F (base A2585T) the result was 0.102. For Q182R (base A3094G) the result was 0.0416. For Y127N (base T2928A) the result was 0.0352. For I482N (base T3994A) the result was 0.0543.

For L168S (base T3052C) the result was 0.0269. I482V (base A3993G) gave 0.0371. With F214S (base T3190C) the assay gave 0.0449. With V111E (base T2881A) the assay gave 0.0238. For P14R (base C2590G) the result was 0.0666. With L283F (base C3396T) the assay gave 0.251.

L551S (base T4201C) gave 0.0786. For Q161L (base A3031T) the result was 0.0427. For Q23L (base A2617T) the result was 0.0579. P420L (base C3808T) gave 0.0594. For L26M (base T2625A) the result was 0.0281. V35A (base T2653C) gave 0.0986.

With R277K (base G3379A) the assay gave 0.335. With Y441C (base A3871G) the assay gave 0.0213. For E89G (base A2815G) the result was 0.0560. For P97S (base C2838T) the result was 0.193. E449G (base A3895G) gave 0.0237. D110E (base T2879A) gave 0.0362.

For Q258K (base C3321A) the result was 0.0745. P468L (base C3952T) gave 0.0765. With Q487R (base A4009G) the assay gave 0.216. N348Y (base A3591T) read 0.0654. W71S (base G2761C) read 0.170. For V10L (base G2577T) the result was 0.111.

K166I (base A3046T) read 0.0349. With I47T (base T2689C) the assay gave 0.0361. For N147D (base A2988G) the result was 0.0280. With K424R (base A3820G) the assay gave 0.108. For G490V (base G4018T) the result was 0.207. V531F (base G4140T) read 0.0529.

T131I (base C2941T) gave 0.0614. D186E (base T3107A) read 0.0702. For N57Y (base A2718T) the result was 0.0499. K465R (base A3943G) gave 0.0725. D192V (base A3124T) read 0.0343. M357K (base T3619A) gave 0.0562.

K366I (base A3646T) read 0.124. With I521T (base T4111C) the assay gave 0.100. R211K (base G3181A) gave 0.193. Q480L (base A3988T) read 0.0571. With I135T (base T2953C) the assay gave 0.0255. For A446T (base G3885A) the result was 0.230.

3 of these entries, quoted again:

* I47T (base T2689C): 0.0361
* K424R (base A3820G): 0.108
* K366I (base A3646T): 0.124

Values reported by Al-Mawsawi et al. 2014 (doi:10.1186/s12977-014-0124-6).